The values below come from patent publication US8278321B2 (priority 2008, dated 2012).

In the test the test system is Vero cells treated with shiga toxin. As to the kind of experiment: cells. Format: cell-based, African green monkey.

Each structure is given as a SMILES string. pIC50: −log10 of the molar value.

For orientation: pIC50 means the IC50 on a negative log10 scale, so that one unit is a factor of ten. For `Fc1cc(F)c2c(c1)[C@H]1C=CC[C@H]1C(c1cccnc1)N2` (mixture of isomers) [GCA, Golgicide A], the “protection of Vero cells against the effects of shiga toxin” value is “highly protected”. Besides, the pIC50 (Chlorocebus sabaeus, Vero, read-out: IC50 of inhibition of the effect of shiga toxin on protein synthesis) was 5.48.
